# Fitness of HIV-1 LAI Vif variants in SupT1-APOBEC3G cells

Values reported by Langley et al. 2025, preprint (doi:10.1101/2025.10.20.683452).

Scanned stretch, residues 12 to 115 of Vif from HIV-1 LAI (a laboratory-adapted subtype B strain):
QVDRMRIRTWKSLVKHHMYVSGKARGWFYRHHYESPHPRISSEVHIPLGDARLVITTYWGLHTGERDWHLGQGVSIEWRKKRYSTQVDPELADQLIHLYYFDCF

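Pooled viruses with one designed change each in Vif went through two 72 h rounds in SupT1 cells expressing APOBEC3G. Each of three replicates was sequenced after round two and set against the merged round-one pool.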

Values are log2 enrichment relative to wild type (0); lower means weaker defence against APOBEC3G and poorer growth. Substitutions are written as wild-type residue, site number, new residue. All changes here are to asparagine. The median of three replicates is given. Input reads are the counts in the merged round-one pool, before selection. Some changes are missing from the data or left out. Replicates agree only moderately (rank correlation about 0.4-0.65); scores from under about 50 input reads tend to be too high. Positive scores are uncertain; some enriched variants did not exclude APOBEC3G in a separate test.

With K92N (input reads 524) the assay gave -0.50. S95N (input reads 50) gave 1.24. For Q97N (input reads 411) the result was -0.93. V98N (input reads 366) gave -3.18. D99N (input reads 333) read -1.96. With P100N (input reads 110) the assay gave -2.25. E101N (input reads 1891) gave -1.59. For L102N (input reads 111) the result was -4.17.

For A103N (input reads 196) the result was -1.50. D104N (input reads 1343) read -2.73. With Q105N (input reads 1030) the assay gave -1.70. For L106N (input reads 100) the result was -1.65. With I107N (input reads 313) the assay gave -2.21. H108N (input reads 880) gave -2.83. Y110N (input reads 550) read -0.26. Y111N (input reads 100) gave -0.21.

With F112N (input reads 257) the assay gave -2.18. D113N (input reads 1896) read -0.82. F115N (input reads 328) read -4.13.

The last 2 entries again:

substitution,input reads,log2 enrichment (median)
D113N,1896,-0.82
F115N,328,-4.13